# Reference: PubChem BioAssay AID1986 (Sanford-Burnham Center for Chemical Genomics, 2009)
# The entries are a selection whose mix differs from that of the whole data set. Active and inactive are the calls of the source. Cut-off read from the data, not from the text of the source: active = inhibition mostly above about 52% (no sharp cut-off); inactive = mostly below about 76%.
# Assay: cell-free HIV fusion peptide-binding blockers – biochemical, uHTS, fluorescence dequenching, primary screen (AID 1986)
# Conditions: HIV Env-mediated cell-cell fusion, fluorescence reporter; at 20 µM; stronger effect = higher value
row,Compound,inhibition
1,COc1ccc(C(=O)NCC2(N3CCCCC3)CCCCC2)c(OC)c1OC,inactive: 0.1%
2,CC(C)(C)OC(=O)N1CCC(N(C(=O)c2ccccc2)c2ccc(F)cc2)CC1,inactive: -1.3%
3,COc1ccc(C(=O)NCC2(N3CCCCC3)CCCCC2)cc1,inactive: -0.3%
4,O=C(NCC1(N2CCCCC2)CCCCC1)c1ccc(=O)[nH]c1,inactive: -1.4%
5,CSc1ccccc1C(=O)NCC1(N2CCCCC2)CCCCC1,inactive: -1.4%
6,Cc1cc(C)cc(N(C(=O)c2ccccc2)C2CCN(C(=O)OC(C)(C)C)CC2)c1,inactive: 1.4%
7,O=C(NCC1(N2CCOCC2)CCCCC1)c1cc2ccccc2o1,inactive: 3.5%
8,N#CC1(Nc2ccccc2)CCN(Cc2ccccc2)CC1,inactive: 12.1%
9,O=C(OC1CN2CCC1CC2)C1c2ccccc2Oc2ccccc21 (centres undefined),inactive: -1.3%
10,CCOC(=O)N1CCC(Nc2ccc(OC)cc2)CC1,inactive: 1.2%
11,CCOc1ccc(C)cc1CN(CCCl)CCCl,inactive: 1.6%
12,CCOC(=O)N1CCC(Nc2ccc(F)cc2)CC1,inactive: -2.2%
13,COc1ccc(NC2CCN(CCc3ccccc3)CC2)c(OC)c1,inactive: 1.2%
14,O=C(NCC1(N2CCCCC2)CCCCC1)c1ccc(F)cc1,inactive: 2.1%
15,Cc1ccc(OCC(C)C)c(CN(CCCl)CCCl)c1,inactive: -0.3%
16,CCOC(=O)N1CCC(Nc2cccc(C)c2)CC1,inactive: 0.9%
17,COc1cc(C(=O)NCC2(N(C)C)CCCCC2)ccc1OC(F)F,inactive: -0.1%
18,O=C(NCC1(N2CCCCC2)CCCCC1)c1ccc(OC(F)F)cc1,inactive: -0.8%
19,N#CC1(Nc2ccccc2)CCN(CCc2ccccc2)CC1,inactive: -2.3%
20,CCN1CCC(Nc2ccc(Cl)cc2)CC1,inactive: 1.9%
21,O=C(NCC1(N2CCCCC2)CCCCC1)c1cccc([N+](=O)[O-])c1,inactive: 0.2%
22,O=C(NCC1(N2CCCCC2)CCCCC1)c1cccc(C(F)(F)F)c1,inactive: 1.3%
23,O=C(NCC1(N2CCOCC2)CCCCC1)c1cc(=O)[nH]c2ccccc12,inactive: -1.3%
24,COc1cc(C(=O)NCC2(N3CCCCC3)CCCCC2)ccc1OC(F)F,inactive: -0.5%
25,COc1ccc(NC2CCN(C(=O)OC(C)(C)C)CC2)cc1,inactive: -3.3%
26,CN1CCN(CCOC(=O)C(O)(c2ccccc2)c2ccccc2)CC1,inactive: 4.8%
27,CC(C)c1ccc(NC2CCN(C(=O)OC(C)(C)C)CC2)cc1,inactive: -3.4%

row,Compound,inhibition
1,CN(C)c1cccc(C(=O)NCC2(N3CCCCC3)CCCCC2)c1,inactive: 0.1%
2,COc1ccc(CN(CCCl)CCCl)cc1Cl,inactive: -1.1%
3,COc1cc(OC)c(C(=O)NCC2(N(C)C)CCCCC2)cc1OC,inactive: -0.2%
4,CCCOc1ccc(C(=O)NCC2(N(C)C)CCCCC2)cc1OC,inactive: -0.8%
5,COc1ccc(C(=O)NCC2(N3CCOCC3)CCCCC2)cc1OC,inactive: 2.8%
6,CCOC(=O)N1CCC(Nc2ccc(C)cc2)CC1,inactive: -1%
7,N/C(=N\O)c1c(N)no[n+]1[O-],inactive: -1.5%
8,O=C(OC1CN2CCC1CC2)C1c2ccccc2C=Cc2ccccc21 (centres undefined),inactive: 2.2%
9,N#Cc1ccc(C(=O)NCC2(N3CCCCC3)CCCCC2)cc1,inactive: -0.2%
10,CC(C)(C)OC(=O)N1CCC(N(C(=O)c2ccccc2)c2ccc(Cl)cc2)CC1,inactive: 1.9%
11,CN(C)C1(CNC(=O)c2cccc(C#N)c2)CCCCC1,inactive: -1.4%
12,CCCN1CCC(Nc2cc(OC)cc(OC)c2)CC1,inactive: 2.8%
13,c1ccc(CN2CCC(Nc3ccccc3)CC2)cc1,inactive: -3.4%
14,COc1cc(OC)cc(C(=O)NCC2(N3CCCCC3)CCCCC2)c1,inactive: -1.9%
15,Fc1ccccc1NC1CCN(Cc2ccccc2)CC1,inactive: 16.3%
16,CCN1CCC(Nc2cccc(F)c2)CC1,inactive: 2.5%
17,CN(C)c1ccc(C(=O)NCC2(N3CCCCC3)CCCCC2)cc1,inactive: 0.4%
18,CN1CCC(Nc2ccc(F)c(Cl)c2)CC1,inactive: 0.2%
19,CCOc1ncccc1C(=O)NCC1(N2CCOCC2)CCCCC1,inactive: 1.6%
20,O=C(O)C1(Nc2ccccc2)CCN(Cc2ccccc2)CC1,inactive: 0.7%
21,CC(C)(C)OC(=O)N1CCC(Nc2ccccc2)CC1,inactive: -1.9%
22,CCCOc1ccc(C(=O)NCC2(N(C)C)CCCCC2)cc1,inactive: 0.9%
23,COc1cccc(C(=O)N(c2cc(C)cc(C)c2)C2CCN(C(=O)OC(C)(C)C)CC2)c1,inactive: -0.1%
24,COc1cc(OC)cc(C(=O)NCC2(N3CCOCC3)CCCCC2)c1,inactive: 1.2%
25,CCC(CO)(C(=O)OC1CN2CCC1CC2)c1ccccc1 (centres undefined),inactive: -2.8%
26,CN1CCC(Nc2ccc(Cl)cc2)CC1,inactive: 1.7%
27,CCCOc1ccc(C)cc1CN(CCCl)CCCl,inactive: 1%
